Anti-infective test results gathered from many reports (values: NIAID ChemDB through PubChem).

All rows: toxicity to cultured cells; cells: MT-4; endpoint: CC50

CCn: concentration that lowers growth or viability of the cells by n%. An empty or dashed field is not shown. Lines come from different laboratories, so protocols vary.

compound | read by | value
COc1ccc(C2CC(=O)Nc3nc(-c4cccnc4)nn32)cc1 | visual reading | >100 µg/mL
COC(=O)c1ccc(NC(=O)COc2cccnc2-c2cccc3ccccc23)cc1 | MTT / absorbance | 64.9 µM
O=C1CC(c2ccccc2)n2nc(-c3ccc4ccccc4c3)nc2N1 | visual reading | >100 µg/mL
CN1CCn2c(nc(C(=O)NCc3ccc(F)cc3)c(O)c2=O)C(NCc2ccccc2)C1 | microscopy | >1 µM
Clc1nccc2nc(-c3ccccn3)c(-c3ccccn3)nc12 | MTT / absorbance | 67.36 µM
CNc1ccc2c(COc3ccc(Cl)c(Oc4cc(Cl)cc(C#N)c4)c3)[nH]nc2n1 | microscopy | >20 µM
CN1CCn2c(nc(C(=O)NCc3cccc(Cl)c3)c(O)c2=O)C(N(C)C(=O)C(=O)N(C)C)C1 | microscopy | >1 µM
O=C(COc1cccnc1-c1cccc2ccccc12)Nc1ccc(C(F)(F)F)cc1 | MTT / absorbance | 11.7 µM
Cc1nc2ccccc2c(-c2cc(F)c3c(c2C)CCCO3)c1[C@H](OC(C)(C)C)C(=O)O | luminescence | 10 µM
NC[C@H]1O[C@@H](n2cnc3c(N)ncnc32)C[C@@H]1O | trypan blue | >500 µg/mL
COP(=O)(c1cc(C)cc(CCC#N)c1)c1c(C(N)=O)[nH]c2ccc(Cl)cc12 | MTS | 27.3 µM
COC(=O)C(C)(C)NP(=O)(OC[C@H]1C=C[C@@H](n2ccc3c(N)ncnc32)C1)Oc1ccccc1 | MTS | >10 µM
N#Cc1c(-c2ccccc2)cc(-c2ccccc2)n([C@@H]2O[C@H](CO)[C@@H](O)[C@H](O)[C@H]2O)c1=O | XTT | >21.4 µM
N#Cc1cc(C#N)cc(Oc2cc(Cl)cc(OCC(=O)Nc3ccc(S(N)(=O)=O)cc3Cl)c2)c1 | microscopy | >20 µM
CC(C)(C)OC(C(=O)O)C1=C(c2ccc3c(c2)CCCO3)c2ccccc2OC1 | ATP | >50 µM
O=C(/C=C/c1cc(-c2ccccc2)cn1Cc1ccc(F)cc1)CC(=O)C(=O)O | resazurin | >50 µM
O=c1[nH]c(=S)[nH]c2nc(-c3ccccn3)c(-c3ccccn3)nc12 | MTT / absorbance | 79.23 µM
Cc1cn([C@H]2C[C@H](N=[N+]=[N-])[C@@H](CO)O2)c(=O)[nH]c1=O | luminescence | 10 µM
Nc1ncnc2c1ccn2[C@@H]1CC[C@H](CO)C1 | MTS | 255 µM
O=C1NCc2c1ccnc2-c1cc(-c2cc(Cl)cc(OC(F)(F)F)c2)n(-c2cccnc2)n1 | resazurin | >3.3 µM
CS(=O)(=O)c1ccc2c(c1)CCN2C(=O)COc1ccc(Cl)c(Oc2cc(Cl)cc(C#N)c2)c1 | microscopy | >20 µM
[O-][n+]1onc2ncnc(N3CC[N+]4(CC3)CC[N+]3(CCN(c5ncnc6no[n+]([O-])c56)CC3)CC4)c21 | XTT | >200 µM
COC(=O)N[C@H](C(=O)NN(CC[C@@]1(Cc2ccccc2)C(=O)N(C2c3ccccc3C[C@H]2O)C[C@H]1O)Cc1ccc(-c2ccncc2)cc1)C(C)(C)C | XTT | 31 µM
CCOC(=O)c1ccc(NC(=O)COc2cccnc2-c2cccc3ccccc23)c(Br)c1 | MTT / absorbance | 149 µM
O=C1NCc2c1cccc2-c1cc(-c2cncc(Cl)c2)n(-c2ccc(F)c(Cl)c2)n1 | resazurin | >3.3 µM
N#Cc1cc(Cl)cc(Oc2cc(Cl)cc(OCC(=O)Nc3ccc(C(N)=O)cc3Cl)c2)c1 | microscopy | >20 µM
Cc1cnc(CN2CCn3c(nc(C(=O)NCc4ccc(F)cc4)c(O)c3=O)C2(C)C)o1 | microscopy | >1 µM
COc1ccc(-c2cc(-c3ccco3)c(C#N)c(=O)n2[C@@H]2O[C@H](COC(C)=O)[C@@H](OC(C)=O)[C@H](OC(C)=O)[C@H]2OC(C)=O)cc1 | XTT | >11.6 µM
CCOC(=O)C(=O)CC(=O)/C=C/c1cccn1Cc1ccc(F)cc1 | resazurin | >50 µM
CN1CCn2c(nc(C(=O)NCc3ccc(F)cc3)c(O)c2=O)C(N(C)S(C)(=O)=O)C1 | microscopy | >1 µM
O=C1NCc2c1ccnc2-c1cc(-c2cc(F)cc(Cl)c2)n(-c2cccc(Cl)c2)n1 | resazurin | >3.3 µM
O=C(COc1cccnc1-c1cccc2ccccc12)Nc1ccccc1 | MTT / absorbance | 20.2 µM
COc1cccc2c1nc(-c1ccccc1F)n2Cc1cc(F)ccc1F | - | 14.7 µg/mL
COC(=O)N[C@H](C(=O)NN(CC[C@@]1(Cc2ccccc2)C(=O)N(C2c3ccccc3C[C@H]2O)C[C@@H]1O)Cc1ccc(-c2ccncc2)cc1)C(C)(C)C | XTT | 31 µM
NC[C@H]1O[C@@H](n2cnc3c(N)ncnc32)C[C@H]1N | trypan blue | >500 µg/mL
CC(C)CCS(=O)(=O)c1c(C(=O)NCc2nccn2C)[nH]c2ccc(Cl)cc12 | microscopy | >10 µM
Cc1nc(CN2CCn3c(nc(C(=O)NCc4ccc(F)cc4)c(O)c3=O)C2(C)C)cs1 | microscopy | >1 µM
CC(=O)c1c(C)nc(-c2ccccc2)nc1NC(=O)c1ccccc1 | trypan blue | >50 µM
CC(C)OC(=O)[C@H](C)NP(=O)(OC[C@H]1C=C[C@@H](n2cnc3c(N)ncnc32)C1)Oc1ccccc1 | MTS | 100 µM
COC(=O)N[C@H](C(=O)NN(CCc1ccccc1)CC[C@@](O)(Cc1ccccc1)C(=O)N[C@H]1c2ccccc2C[C@H]1O)C(C)(C)C | XTT | >10 µM
COc1ccc(C2CC(=O)Nc3nc(-c4ccncc4)nn32)cc1 | visual reading | >100 µg/mL
COC(=O)C(C)(C)NP(=O)(OC[C@H]1C=C[C@@H](n2cnc3c(N)ncnc32)C1)Oc1ccccc1 | MTS | 20 µM
Cc1cn([C@H]2C[C@H](N=[N+]=[N-])[C@@H](CO)O2)c(=O)[nH]c1=O | absorbance | 222 µM
COc1cccc2c1nc(-c1ccccc1F)n2Cc1c(F)cccc1Cl | - | 13.1 µg/mL
CN1Cn2c(nc(C(=O)NCc3ccc(F)cc3)c(O)c2=O)C1(C)C | microscopy | >1 µM
C[C@H](Cn1cnc2c(N)ncnc21)OCP(=O)(O)O | tetrazolium | >250 µM
CC1CC(C)CN(S(=O)(=O)c2ccccc2[N+](=O)[O-])C1 | trypan blue | >50 µM
Cc1cc(OCc2nc3ccccc3s2)cc(Oc2cc(Cl)cc(C#N)c2)c1 | microscopy | >20 µM
COC(=O)N[C@H](C(=O)NN(CCC[C@@]1(Cc2ccccc2)C(=O)N(C2c3ccccc3C[C@H]2O)C[C@H]1O)Cc1ccc(-c2ccccn2)cc1)C(C)(C)C | XTT | 31 µM
N#Cc1cc(Cl)cc(Oc2cc(OCc3[nH]nc4nc(N5CC(N)C5)ccc34)ccc2Cl)c1 | microscopy | >20 µM
Nc1ncnc2c1ccn2[C@H]1C=C[C@@H](CO)C1 | MTS | >500 µM
N#Cc1c(-c2ccccc2)cc(-c2ccccc2)n([C@@H]2O[C@H](CO)[C@H](O)[C@H](O)[C@H]2O)c1=O | XTT | >59.9 µM
CN(C)C(=O)C(=O)N(C)C1CN(C2CCCC2)CCn2c1nc(C(=O)NCc1ccc(F)cc1)c(O)c2=O | microscopy | >1 µM
S=c1[nH]c(=S)c2nc(-c3ccccn3)c(-c3ccccn3)nc2[nH]1 | MTT / absorbance | 93.23 µM
CCOC(=O)C(=O)CC(=O)/C=C/c1cccn1Cc1cccc(OC)c1 | resazurin | 14.1 µM
Cc1ccc(-c2ncccc2OCC(=O)Nc2ccc(C(N)=O)cc2)cc1 | MTT / absorbance | 105 µM
CCOC(=O)c1[nH]c2ccc(Cl)cc2c1SC1CC1 | microscopy | >10 µM
Nc1[nH]c(=O)nc2nc(-c3ccccn3)c(-c3ccccn3)nc12 | MTT / absorbance | 75.34 µM
CO[C@@H]1[C@H](N(C)C(=O)c2ccccc2)C[C@@]2(C)O[C@]1(C)n1c3ccccc3c3c4c(c5c6ccccc6n2c5c31)C(=O)NC4 | fluorescence | >5 µM
Cc1nc2ccccc2c(C2CCCCC2)c1C(OC(C)(C)C)C(=O)O | ATP | >50 µM
COc1cc(OC(F)(F)F)cc(-c2cc(-c3nccc4c3CNC4=O)nn2-c2ccc(F)c(Cl)c2)c1 | resazurin | >3.3 µM
CCOC(=O)c1[nH]c2ccc(Cl)cc2c1S(=O)(=O)CCC1CC1 | microscopy | >10 µM
O=C(CCOCC(COCCC(=O)NC(Cc1c(-c2cc(C(=O)O)cc(C(=O)O)c2)[nH]c2ccccc12)C(=O)O)(COCCC(=O)NC(Cc1c(-c2cc(C(=O)O)cc(C(=O)O)c2)[nH]c2ccccc12)C(=O)O)COCCC(=O)NC(Cc1c(-c2cc(C(=O)O)cc(C(=O)O)c2)[nH]c2ccccc12)C(=O)O)NC(Cc1c(-c2cc(C(=O)O)cc(C(=O)O)c2)[nH]c2ccccc12)C(=O)O | MTS | >100 µM
Cc1ccnc2c1NC(=O)c1cccnc1N2C1CC1 | XTT | >1000 µM
Fc1ccc(NC(=S)NC2CCN(Cc3ccccc3)CC2)cc1Cl | MTT | 15.7 µM
CCOC(=O)c1[nH]c2ccc(Cl)cc2c1SCCC(F)(F)F | microscopy | >10 µM
O=C1NCc2c1cccc2-c1cc(-c2cccc(Cl)c2)n(-c2cccc(C(F)(F)F)c2)n1 | resazurin | >3.3 µM
Cc1nc2c(c(-c3ccccc3)c1C(OC(C)(C)C)C(=O)O)CCCC2 | ATP | >50 µM
COC(=O)c1ccc(NC(=O)COc2cccnc2-c2cccc3ccccc23)c([N+](=O)[O-])c1 | MTT / absorbance | 62 µM
O=C1NCc2c1ccnc2-c1cc(-c2cc(Cl)cc(OC(F)F)c2)n(-c2ccnc(Cl)c2)n1 | resazurin | >3.3 µM
Nc1ncnc2c1ncn2[C@@H]1O[C@H](CO)C[C@H]1N | trypan blue | 220 µg/mL
O=C1NCc2c1ccnc2-c1cc(-c2cc(Br)cc(OC(F)(F)F)c2)n(-c2cccnc2)n1 | resazurin | >3.3 µM
Cc1cn([C@H]2C[C@H](N=[N+]=[N-])[C@@H](CO)O2)c(=O)[nH]c1=O | WST | >4.482 µM
CC(C)CCS(=O)(=O)c1c(C(=O)NCc2[nH]nc3ccccc23)[nH]c2ccc(Cl)cc12 | microscopy | >10 µM
C=C(C)Cn1c(-c2ccccc2F)nc2c(OC)cccc21 | - | 11.93 µg/mL
Cc1cc(Nc2ccc(C(=O)NCCF)cc2F)nc(-c2cccnc2)n1 | XTT | 77 µM
CCOC(=O)C(=O)CC(=O)/C=C/c1cccn1Cc1ccccc1Cl | resazurin | >50 µM
Cc1cc(OCC(=O)Nc2ccc(S(N)(=O)=O)cc2Cl)cc(Oc2cc(Cl)cc(C#N)c2)c1 | microscopy | >20 µM
Nc1ncnc2c1ccn2[C@@H]1C=C[C@H](CO)C1 | MTS | >500 µM
S=C(Nc1ccc(Cl)c(Cl)c1)NC1CCN(Cc2ccccc2)CC1 | MTT | 7.3 µM
O=C1NCc2c1cccc2-c1cc(-c2cc(Cl)cc(OC(F)(F)F)c2)n(-c2cccnc2)n1 | resazurin | >3.3 µM
COc1cccc2c1nc(-c1ccccc1F)n2Cc1ccccc1 | - | 25.9 µg/mL
S=C(NCc1ccco1)Nc1ccc(Cl)c(Cl)c1 | MTT | 35.7 µM
CC(C)CN(C[C@@H](O)[C@H](Cc1cc(F)cc(F)c1)NC(=O)O[C@H]1CO[C@H]2OC[C@H](NC(C)C)[C@H]21)S(=O)(=O)c1ccc2nc(NC3CC3)sc2c1 | WST | 45.4 µM
NC[C@H]1O[C@@H](n2cnc3c(N)ncnc32)C[C@H]1O | trypan blue | >500 µg/mL
Cc1ccc(Cl)cc1NC(=S)NCc1ccco1 | MTT | 100 µM
C[C@H](NP(=O)(OC[C@H]1C=C[C@@H](n2cnc3c(N)ncnc32)C1)Oc1ccccc1)C(=O)OC(C)(C)C | MTS | 85 µM
COC(=O)N[C@H](C(=O)NN(CC[C@@]1(Cc2ccccc2)C(=O)N(C2c3ccccc3C[C@H]2O)C[C@@H]1O)Cc1ccc(Br)cc1)C(C)(C)C | XTT | 31 µM
Cc1ccc(-c2ncccc2OCC(=O)Nc2ccc(S(N)(=O)=O)cc2)cc1 | MTT / absorbance | ≤249 µM
COC(=O)[C@H](C)NP(=O)(OC[C@@H]1CC[C@H](n2ccc3c(N)ncnc32)C1)Oc1ccccc1 | MTS | >25 µM
CC1c2nc(C(=O)NCc3ccc(F)cc3)c(O)c(=O)n2CCN1Cc1ccnn1C | microscopy | >1 µM
Cc1ccc(S(=O)(=O)n2c(=O)[nH]c3ccc(Cl)cc32)cc1C | MTS | >371 µM

For reference, 13 entries again:

CC1CC(C)CN(S(=O)(=O)c2ccccc2[N+](=O)[O-])C1 ; read by: trypan blue ; value: >50 µM
Cc1cn([C@H]2C[C@H](N=[N+]=[N-])[C@@H](CO)O2)c(=O)[nH]c1=O ; read by: absorbance ; value: 222 µM
O=C(/C=C/c1cc(-c2ccccc2)cn1Cc1ccc(F)cc1)CC(=O)C(=O)O ; read by: resazurin ; value: >50 µM
Cc1nc2ccccc2c(-c2cc(F)c3c(c2C)CCCO3)c1[C@H](OC(C)(C)C)C(=O)O ; read by: luminescence ; value: 10 µM
COC(=O)C(C)(C)NP(=O)(OC[C@H]1C=C[C@@H](n2ccc3c(N)ncnc32)C1)Oc1ccccc1 ; read by: MTS ; value: >10 µM
CCOC(=O)C(=O)CC(=O)/C=C/c1cccn1Cc1ccc(F)cc1 ; read by: resazurin ; value: >50 µM
COP(=O)(c1cc(C)cc(CCC#N)c1)c1c(C(N)=O)[nH]c2ccc(Cl)cc12 ; read by: MTS ; value: 27.3 µM
COc1cccc2c1nc(-c1ccccc1F)n2Cc1ccccc1 ; value: 25.9 µg/mL
O=C1NCc2c1cccc2-c1cc(-c2cccc(Cl)c2)n(-c2cccc(C(F)(F)F)c2)n1 ; read by: resazurin ; value: >3.3 µM
CN1CCn2c(nc(C(=O)NCc3ccc(F)cc3)c(O)c2=O)C(NCc2ccccc2)C1 ; read by: microscopy ; value: >1 µM
NC[C@H]1O[C@@H](n2cnc3c(N)ncnc32)C[C@H]1O ; read by: trypan blue ; value: >500 µg/mL
COC(=O)c1ccc(NC(=O)COc2cccnc2-c2cccc3ccccc23)cc1 ; read by: MTT / absorbance ; value: 64.9 µM
O=c1[nH]c(=S)[nH]c2nc(-c3ccccn3)c(-c3ccccn3)nc12 ; read by: MTT / absorbance ; value: 79.23 µM